Target: RRS1-S-YFPv (Arabidopsis thaliana (Col-0 accession))
Experiment: FRET or BRET

PopP2-CFP (from UniProt Q8Y125 1-488) (natural protein)
FRET efficiency E: 21% | decrease of donor lifetime (delta t = tauD - tauDA): 497 ps | mean CFP donor lifetime with acceptor (tau): 1.89 ns

— paper PMC2987829, “Autoacetylation of the Ralstonia solanacearum Effector PopP2 Targets a Lysine Residue Essential for RRS1-R-Mediated Immunity in Arabidopsis” (2010)
